A mixed list of measured activities; the numbers were collected in NIAID ChemDB.

Common to all: whole-cell or culture tests; agent: Herpes simplex virus 1

Blank or dashed fields: not listed here. a–b is a range or a potency band. ECn is the concentration giving n% inhibition of infection, replication or growth. Lines come from different laboratories, so protocols vary.

smiles	read-out	changes	cells	read by	strain	value
O=C(CCC1CCCCC1)N(O)c1ccc(Cl)cc1	EC50		E6SM	cytopathic effect	KOS ACV-resistant TK-	>16 µg/mL
CC(C)NS(=O)(=O)c1ccccc1C(=O)N/N=C/c1ccc(-c2cccs2)cc1	EC50		HEL	cytopathic effect	KOS	>100 µM
[N-]=[N+]=Nc1c(-c2ccccc2)c(-c2ccccc2)n(COCCO)c1-c1ccccc1	EC50		VERO	plaque count		>65 µM
CC(=O)O[C@H]1C[C@](C)(O)/C=C/C[C@@H](C)/C=C/[C@@]2(C)CC[C@@H](C(C)(C)OC(C)=O)[C@H]12	EC50		VERO	cytopathic effect		<15 µM
Nc1ccn([C@H]2CO[C@H](CO)[C@@H](O)C2)c(=O)n1	EC50		E6SM	cytopathic effect	TK-/TK+ (VMW 1837)	4 µg/mL
CC(=O)NS(=O)(=O)c1cc(C)c(NC(=O)CN2C(=O)c3ccccc3S2(=O)=O)cc1C	EC50	TK-deficient acyclovir-resistant	HEL	cytopathic effect	KOS	>100 µM
CSc1nsc(SC)c1C#N	EC50		VERO	plaque count	F strain	>12 µM
Clc1cccc(-c2nn3c(c2-c2ccnc(NC4CCCC4)n2)CC=[N+]=C3N2CCOCC2)c1	EC50			hybridisation		0.2 µM
CSc1nsc(-c2ccc(O)cc2)c1C#N	EC50		VERO	plaque count	F strain	>2 µM
Nc1nc2c(ncn2[C@@H]2C[C@H](CO)[C@H]2CO)c(=O)[nH]1	EC50		WI-38	plaque count	KOS/PFA^R-1	0.4–0.8 µM
Cc1c(NC(=O)OC(C)(C)C)ccc2nc(N(CC(C)(C)C)C(=O)N(C)CCc3ccccn3)oc(=O)c12	EC90		VERO	plaque count		5.9 µM
Nc1nc2c(ncn2COCCO)c(=O)[nH]1	EC50		WI-38	plaque count	KOS	0.4–0.8 µM
Cc1c(NC(=O)OC(C)(C)C)ccc2nc(N3CCC[C@H]3C(=O)N(C)CCc3ccncc3)oc(=O)c12	EC90		VERO	plaque count		>12.5 µM
O=C(NCc1ccc(Cl)cc1)c1c[nH]c2c(F)cc(CCCO)cc2c1=O	EC50				F891C	1.1 µM
CSc1nsc(-c2ccc(C)cc2)c1C#N	EC50		VERO	plaque count	F strain	>18 µM
Cc1c(NC(=O)OC(C)(C)C)ccc2nc(N3CCC[C@H]3C(=O)N(C)CCc3cccnc3)oc(=O)c12	EC90		VERO	plaque count		>12.5 µM
CC(C)NS(=O)(=O)c1ccccc1C(=O)N/N=C/c1ccc(F)cc1	EC50	TK-deficient acyclovir-resistant	HEL	cytopathic effect	KOS	>100 µM
O=C(C1CCCCC1)N(O)c1ccc(Cl)cc1	EC50		E6SM	cytopathic effect	KOS ACV-resistant TK-	>80 µg/mL
CC(=O)OCCOCn1c(-c2ccccc2)c(Br)c(-c2ccccc2)c1-c1ccccc1	EC50		VERO	plaque count		>16 µM
Nc1nc2c(ncn2CC(CO)CCO)c(=O)[nH]1	EC50		SIRC	plaque count	C42	1.4 µM
CCCCOc1ccc(-c2snc(SC)c2C#N)cc1	EC50		VERO	plaque count	F strain	>50 µM
Cc1c(NC(=O)CCNC(=O)OC(C)(C)C)ccc2nc(NC(C)(C)C(=O)N(C)CCc3ccccn3)oc(=O)c12	EC90		VERO	plaque count		>12.5 µM
CC(=O)c1ccc(NC(=O)CN2C(=O)c3ccccc3S2(=O)=O)cc1	EC50		HEL	cytopathic effect	KOS	>100 µM
CSc1nsc(-c2ccc(Cl)cc2Cl)c1C#N	EC50		VERO	plaque count	F strain	>8 µM
Cc1c(NC(=O)OC(C)(C)C)ccc2nc(N(CC(C)C)C(=O)NCc3ccncc3)oc(=O)c12	EC90		VERO	plaque count		>25 µM
O=P1(O)OCC2O[C@@H](n3cnc4c(NO)ncnc43)[C@H](O)C2O1	MIC					1 µg/mL
Nc1nc2c(ncn2CC[C@@H](O)CO)c(=O)[nH]1	EC50		VERO	plaque count	C42 (acyclovir-resistant)	230 µM
CSc1ncnc2c1ncn2[C@@H]1OC2COP(=O)(O)OC2[C@H]1O	MIC				HF	3.2 µg/mL
Nc1cc(OCCOCP(=O)(O)O)nc(N)n1	EC50		E6SM	cytopathic effect	KOS	25 µM
Cc1c(NC(=O)OC(C)(C)C)ccc2nc(NCC(Cc3ccccc3)C(=O)N(C)c3ccccn3)oc(=O)c12	EC90		VERO	plaque count		10.7 µM
CSc1nsc(-c2cccc(Cl)c2)c1C#N	EC50		VERO	plaque count	F strain	>10 µM
CC(NC(=S)Nc1ccc(NC(=O)c2ccccc2F)cc1)c1ccc(F)cc1	EC50		HFF	ELISA	Patton	>10 µg/mL
Cc1c(NC(=O)OC(C)(C)C)ccc2nc(N(CCc3ccccc3)C(=O)NCc3ccncc3)oc(=O)c12	EC90		VERO	plaque count		>25 µM
Fc1ccc(-c2[nH]n3c(=S)nccc3c2-c2ccnc(NC3CCCC3)n2)cc1	EC50			hybridisation		>40 µM
CCOC(=O)c1c(Cl)c(-c2ccccc2)n(COCCO)c1C	EC50		VERO	plaque count		103 µM
Fc1ccc(-c2nn3c(c2-c2ccnc(NC4CCCC4)n2)CC=[N+]=C3N2CCCC2)cc1	EC50			hybridisation		2 µM
CSc1nsc(-c2cccc3ccccc23)c1C#N	EC50		VERO	plaque count	F strain	>4 µM
O=c1[nH]c(=O)n([C@H]2C[C@H](O)[C@@H](CO)O2)cc1/C=C/Br	EC50	TK-deficient acyclovir-resistant	HEL	cytopathic effect	KOS	50 µM
O=C(NCc1ccc(Cl)cc1)c1c[nH]c2c(F)cccc2c1=O	EC50				KOS	15 µM
CCOC(=O)c1c([N+](=O)[O-])c(-c2ccccc2)n(COCCO)c1C	EC50		VERO	plaque count		>300 µM
O=c1[nH]c(=O)n([C@H]2C[C@H](O)[C@@H](CO)O2)cc1Cc1ccccc1	EC50		PRK	cytopathic effect	KOS	120 µM
CSc1nsc(-c2ccc(Cl)cc2)c1C#N	EC50		VERO	plaque count	F strain	>5 µM

For reference, 3 entries again:

smiles | read-out | changes | cells | read by | strain | value
Fc1ccc(-c2nn3c(c2-c2ccnc(NC4CCCC4)n2)CC=[N+]=C3N2CCCC2)cc1 | EC50 |  |  | hybridisation |  | 2 µM
Nc1nc2c(ncn2CC(CO)CCO)c(=O)[nH]1 | EC50 |  | SIRC | plaque count | C42 | 1.4 µM
Nc1nc2c(ncn2[C@@H]2C[C@H](CO)[C@H]2CO)c(=O)[nH]1 | EC50 |  | WI-38 | plaque count | KOS/PFA^R-1 | 0.4–0.8 µM